Pooled drug test results. Numbers come from NIAID ChemDB, via PubChem.

Common to all: tests in culture; organism: HIV-1; method: cytopathic effect / trypan blue; endpoint: EC50

ECn: concentration that inhibits the pathogen or its effect by n%. Lines come from different laboratories, so protocols vary.

| structure | cells | strain or isolate | value |
|---|---|---|---|
| C[C@H](Cn1cnc2c(N)nc(N)nc21)OCP(=O)(O)O | MT-4 | IIIB | 0.59 µM |
| Nc1nc2c(nc(Br)n2[C@@H]2C[C@H](CO)[C@H]2CO)c(=O)[nH]1 | ATH8 | IIIB | >100 µM |
| Nc1nccc2c1ncn2[C@@H]1C=C[C@@H](O)[C@H]1O | MT-4 | IIIB | >3.3 µg/mL |
| Nc1ncn([C@H]2CC[C@@H](CO)O2)c(=O)n1 | ATH8 | IIIB Laboratory strain | <10 µM |
| O=c1ccn(C[C@@H](CO)OCP(=O)(O)O)c(=O)[nH]1 | MT-4 | IIIB | >250 µM |
| Nc1ccn([C@@H]2C[C@H](CO)[C@H]2CO)c(=O)n1 | ATH8 | IIIB | >500 µM |
| O=c1ccn([C@H]2C=C[C@@H](CO)O2)c(=O)[nH]1 | MT-4 | IIIB | >20 µM |
| [N-]=[N+]=N[C@H]1C[C@H](n2cc(CO)c(=O)[nH]c2=O)O[C@@H]1CO | MT-4 | IIIB | 24 µM |
| Cc1cn([C@@H]2O[C@H](CO[Si](C)(C)C(C)(C)C)[C@@H](O)[C@H]2O[Si](C)(C)C(C)(C)C)c(=O)n(CC(=O)ON)c1=O | MT-4 | IIIB | >2 µM |
| Nc1ncnc2c1ncn2[C@H]1CC[C@@H](COP(=O)(O)O)O1 | ATH8 | IIIB Laboratory strain | <5 µM |
| CC(C)(C)[Si](C)(C)OC[C@H]1O[C@@H](n2ccc(=O)n(CC(=O)O)c2=O)[C@H](O[Si](C)(C)C(C)(C)C)[C@@H]1O | MT-4 | IIIB | >10 µM |
| Nc1ncnc2c1ncn2[C@@H]1C=C[C@@H](O)[C@H]1O | MT-4 | IIIB | >0.9 µg/mL |
| O=c1[nH]cnc2c1ncn2C[C@@H](CO)OCP(=O)(O)O | MT-4 | IIIB | >125 µM |
| Cc1cn([C@@H]2O[C@H](CO[Si](C)(C)C(C)(C)C)[C@@H](O[Si](C)(C)C(C)(C)C)[C@H]2O)c(=O)n(CCO)c1=O | MT-4 | IIIB | 32 µM |
| Nc1nc(=O)n([C@H]2CC[C@@H](CO)O2)cc1Br | ATH8 | IIIB Laboratory strain | >30 µM |
| CNc1ncnc2c1ncn2[C@@H]1C[C@H](CO)[C@H]1CO | ATH8 | IIIB | >500 µM |
| Cc1cn([C@H]2C[C@H](F)[C@@H](CO)O2)c(=O)[nH]c1=O | MT-4 | IIIB | 0.001 µM |
| O=C1CN=C(c2ccc[nH]2)c2cc(Cl)ccc2N1 | MT-4 | IIIB/LAI | >1.3 µM |
| Cc1cn([C@H]2C[C@H](N=[N+]=[N-])[C@@H](CO)O2)c(=O)[nH]c1=O | MT-4 | IIIB | 0.016 µM |
| Cc1cn([C@@H]2O[C@H](CO[Si](C)(C)C(C)(C)C)C3(OS(=O)(=O)C=C3N)[C@H]2O[Si](C)(C)C(C)(C)C)c(=O)n(C)c1=O | CEM | IIIB | 0.033 µM |
| CSc1ccc(OP(=O)(OC[C@@H]2C=C[C@H](n3cnc4c(=O)[nH]cnc43)O2)OC[C@@H]2C=C[C@H](n3cnc4c(=O)[nH]cnc43)O2)cc1 | MT-4 | IIIB | >250 µM |
| Cc1cn([C@@H]2O[C@H](CO[Si](C)(C)C(C)(C)C)C3(OS(=O)(=O)C=C3N)[C@H]2O[Si](C)(C)C(C)(C)C)c(=O)n(CCOC(=O)[C@@H](N)C(C)C)c1=O | MT-4 | IIIB | 0.13 µM |
| CSc1ccc(OP(=O)(OC[C@@H]2C=C[C@H](n3cnc4c(N)ncnc43)O2)OC[C@@H]2C=C[C@H](n3cnc4c(N)ncnc43)O2)cc1 | MT-4 | IIIB | 118 µM |
| COC(=O)Cn1c(=O)c(C)cn([C@H]2C[C@H](N=[N+]=[N-])[C@@H](CO[Si](C)(C)C(C)(C)C)O2)c1=O | MT-4 | IIIB | >10 µM |
| O=c1ccn([C@@H]2C[C@H](CO)[C@H]2CO)c(=O)[nH]1 | ATH8 | IIIB | >500 µM |
| Cc1cn([C@@H]2O[C@H](CO[Si](C)(C)C(C)(C)C)C3(OS(=O)(=O)C=C3N)[C@H]2O[Si](C)(C)C(C)(C)C)c(=O)n(CC(=O)N[C@H](C(=O)OCc2ccccc2)C(C)C)c1=O | MT-4 | IIIB | 4.1 µM |
| Cc1cn([C@H]2C[C@H](N=[N+]=[N-])[C@@H](CO)O2)c(=O)[nH]c1=O | MT-4 | AMR15 | 0.25 µM |
| Cc1cn([C@@H]2O[C@H](CO[Si](C)(C)C(C)(C)C)[C@@H](O)[C@H]2O[Si](C)(C)C(C)(C)C)c(=O)n(CC#N)c1=O | MT-4 | IIIB | >2 µM |
| Cc1cn([C@H]2CC[C@@H](COP(=O)(OC[C@@H]3CC[C@H](n4cc(C)c(=O)[nH]c4=O)O3)Oc3ccc(S(C)(=O)=O)cc3)O2)c(=O)[nH]c1=O | MT-4 | IIIB | 177 µM |
| C[C@@H](Cn1cnc2c(N)ncnc21)OCP(=O)(O)O | MT-4 | IIIB | 270 µM |
| Nc1nc(N)c2ncn(C[C@@H](CO)OCP(=O)(O)O)c2n1 | MT-4 | IIIB | >125 µM |
| CCCC(C)(C)[Si](C)(C)OC[C@H]1O[C@@H](n2cc(C)c(=O)n(CC(=O)O)c2=O)[C@H](O[Si](C)(C)C(C)(C)CCC)[C@@H]1O | MT-4 | IIIB | >10 µM |
| Nc1ncnc2c1ncn2[C@H]1CC[C@@H](CO)O1 | ATH8 | IIIB Laboratory strain | <5 µM |
| Nc1nc2c(ncn2CC(CO)OCP(=O)(O)O)c(=O)[nH]1 | MT-4 | IIIB | >125 µM |
| COC(=O)CCn1c(=O)c(C)cn([C@@H]2O[C@H](CO[Si](C)(C)C(C)(C)C)[C@@H](O)[C@H]2O[Si](C)(C)C(C)(C)C)c1=O | MT-4 | IIIB | >10 µM |
| Nc1ncnc2c1ncn2CCOCP(=O)(O)O | ATH8 | IIIB | 20 µM |
| Cc1cn([C@@H]2O[C@H](CO[Si](C)(C)C(C)(C)C)[C@@H](O[Si](C)(C)C(C)(C)C)[C@H]2O)c(=O)n(CC(=O)ON)c1=O | MT-4 | IIIB | >2 µM |
| Cc1cn([C@@H]2O[C@H](CO[Si](C)(C)C(C)(C)C)C3(OS(=O)(=O)C=C3N)[C@H]2O)c(=O)[nH]c1=O | MT-4 | HE | >40 µM |
| Cc1cn([C@H]2CC[C@@H](COP(=O)(O)O)O2)c(=O)[nH]c1=O | ATH8 | IIIB Laboratory strain | >200 µM |

A second listing of 6 rows from above:

structure,cells,strain or isolate,value
Nc1ncnc2c1ncn2[C@H]1CC[C@@H](COP(=O)(O)O)O1,ATH8,IIIB Laboratory strain,<5 µM
Cc1cn([C@@H]2O[C@H](CO[Si](C)(C)C(C)(C)C)C3(OS(=O)(=O)C=C3N)[C@H]2O)c(=O)[nH]c1=O,MT-4,HE,>40 µM
O=c1ccn([C@H]2C=C[C@@H](CO)O2)c(=O)[nH]1,MT-4,IIIB,>20 µM
Cc1cn([C@@H]2O[C@H](CO[Si](C)(C)C(C)(C)C)[C@@H](O[Si](C)(C)C(C)(C)C)[C@H]2O)c(=O)n(CC(=O)ON)c1=O,MT-4,IIIB,>2 µM
Nc1ccn([C@@H]2C[C@H](CO)[C@H]2CO)c(=O)n1,ATH8,IIIB,>500 µM
Cc1cn([C@@H]2O[C@H](CO[Si](C)(C)C(C)(C)C)C3(OS(=O)(=O)C=C3N)[C@H]2O[Si](C)(C)C(C)(C)C)c(=O)n(C)c1=O,CEM,IIIB,0.033 µM